Results of unrelated studies side by side (data: NIAID ChemDB).

Shared fields: tests in culture; agent: Candida albicans

MIC50, MIC90 and the like: level of inhibition, or share of isolates inhibited. An empty or dashed field is not shown. Lines come from different laboratories, so protocols vary.

smiles | strain or isolate | measure | method | result
Fc1ccc(COc2ccc(C(c3nccc4ccccc34)n3ccnc3)cc2)c(F)c1 | 17 strains | MIC90 |  | ≥256 µg/mL
Cc1c(Cl)[n+](=O)c2cc(Cl)ccc2n1[O-] | Clinical isolate 21 | MIC |  | 7.8 µg/mL
CCCCCOc1ccc(-c2cc(-c3ccc(C(=O)N[C@H]4C[C@@H](O)[C@@H](O)NC(=O)[C@@H]5[C@@H](O)[C@@H](C)CN5C(=O)[C@H]([C@H](O)CC(N)=O)NC(=O)[C@H]([C@H](O)[C@@H](O)c5ccc(O)c(OS(=O)(=O)O)c5)NC(=O)[C@@H]5C[C@@H](O)CN5C(=O)[C@H]([C@@H](C)O)NC4=O)cc3)no2)cc1 | Fluconazole-resistant 4 isolates pooled | MIC90 |  | 0.0313 µg/mL
Cc1c(O)cccc1C(=O)N[C@@H](CSc1ccccc1)[C@H](O)CN1C[C@H]2CCCC[C@H]2C[C@H]1C(=O)NC(C)(C)C | I59C | MIC |  | 64 µg/mL
CCOc1cc2c(cc1F)n([O-])c(C)c(S(=O)(=O)c1ccccc1)[n+]2=O | Clinical isolate 19 | MIC |  | 7.8 µg/mL
CCCCCOc1ccc(-c2ccc(-c3ccc(C(=O)N[C@H]4CCCNC(=O)C5C[C@H](N)CN5C(=O)C(CCCCN)NC(=O)C(CCc5ccc(O)cc5)NC(=O)C5C[C@@H](O)CN5C(=O)C(C(C)O)NC4=O)cc3)cc2)cc1 | ATCC CCH442 | MIC |  | 0.2 µg/mL
Fc1ccc(COc2ccc(C(c3ccc(-c4ccccc4)cc3)n3ccnc3)cc2)cc1.O=[N+]([O-])O | 17 strains | MIC90 |  | ≥256 µg/mL
CCCCCOc1ccc(-c2ccc(-c3ccc(C(=O)N[C@H]4CCCNC(=O)C5C[C@H](N)CN5C(=O)C(CCC[N+](C)(C)C)NC(=O)C(CCc5ccc(O)cc5)NC(=O)C5C[C@@H](O)CN5C(=O)C(C(C)O)NC4=O)cc3)cc2)cc1 | ATCC 62376 | MIC |  | 0.2 µg/mL
N=C(N)c1ccc2nc(-c3ccc(-c4nc5ccc(C(=N)N)cc5[nH]4)[nH]3)[nH]c2c1 | Isolate 1866 | MIC |  | 0.78 µg/mL
CN(CCCC#CC(C)(C)C)c1cccc2c1CCC(=O)N2 | Clinical isolate 19 | MIC |  | 31.25 µg/mL
CCCCCCCCOc1ccc(N2CCN(c3ccc(C(=O)N[C@H]4CCCNC(=O)C5C[C@H](N)CN5C(=O)C(C(C)O)NC(=O)C(OCc5ccncc5)NC(=O)C5CCCN5C(=O)C(C(C)O)NC4=O)cc3)CC2)cc1 | ATCC 62376 | MIC |  | 3.12 µg/mL
Fc1ccc(COc2ccc(C(c3ccc4ccccc4c3)n3ccnc3)cc2)cc1.O=[N+]([O-])O | 16 strains | MIC90 |  | ≥256 µg/mL
C=CCc1ccc(O)c(OC)c1 | 3143 | MIC90 | turbidity | 475 µg/mL
Cc1c(Sc2ccccc2)[n+](=O)c2cc(Cl)ccc2n1[O-] | Clinical isolate 23 | MIC |  | 31.25 µg/mL
COc1ccc(C(c2nccc3ccccc23)n2ccnc2)cc1.O=[N+]([O-])O | 44 strains | MIC90 |  | >256 µg/mL
CCCCCOc1ccc(-c2ccc(-c3ccc(C(=O)N[C@H]4CCCNC(=O)C5C[C@H](N)CN5C(=O)C(CCCN(CCN)CCN)NC(=O)C(CCc5ccc(O)cc5)NC(=O)C5C[C@@H](O)CN5C(=O)C(C(C)O)NC4=O)cc3)cc2)cc1 | ATCC 62376 | MIC |  | 0.2 µg/mL
Fc1ccc(C(c2nccc3ccccc23)n2ccnc2)cc1.O=[N+]([O-])O | 44 strains | MIC90 |  | 256 µg/mL
CC(O)C1NC(=O)C(CCc2ccc(O)cc2)NC(=O)C2C[C@@H](O)CN2C(=O)C(C(C)O)NC(=O)[C@@H](NC(=O)c2ccc(N3CCN(c4ccc(OCc5ccccc5)cc4)CC3)cc2)CCCNC(=O)C2C[C@H](N)CN2C1=O | ATCC 10231 | MIC |  | 0.2 µg/mL

The last 2 rows once more:

smiles,strain or isolate,measure,method,result
Fc1ccc(C(c2nccc3ccccc23)n2ccnc2)cc1.O=[N+]([O-])O,44 strains,MIC90,,256 µg/mL
CC(O)C1NC(=O)C(CCc2ccc(O)cc2)NC(=O)C2C[C@@H](O)CN2C(=O)C(C(C)O)NC(=O)[C@@H](NC(=O)c2ccc(N3CCN(c4ccc(OCc5ccccc5)cc4)CC3)cc2)CCCNC(=O)C2C[C@H](N)CN2C1=O,ATCC 10231,MIC,,0.2 µg/mL